PubChem BioAssay AID1224833, University of Georgia | 2016
Screen: 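Host factors restraining rotavirus as candidate antiviral genes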 (primary screen). Cell system: monkey MA104 kidney cells. Knock-down reagent: siRNA pool against human genes, 50 nM. Time to read-out: 48 h knock-down before infection; read 24 h after infection. Conditions: infection with rotavirus strain RV3 two days after transfection; infectious dose for this stage not given. Detection: 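Rotavirus antigen per well by fluorescent immunoassay, normalised to non-targeting control wells on each plate and given as a standard z-score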. Direction: z-score vs non-targeting control: higher = more rotavirus replication than with non-targeting control. Hit rule: In these data the active calls have z-score vs non-targeting control at about -1 or lower, or at about 1 or higher. Calls: active = z-score beyond 1 either way; inactive = z-score within 1 of zero.
The deposit covers about 12,000 reagents; shown is a random part of them. About 5,600 of them (46%) were called active. 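Active calls cover z-scores past 1 in both directions, so they include lowered as well as raised rotavirus replication.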 A number with no mark means an inactive call.

How did the screen score KRTAP8-1 [SID329584007]?
z-score vs non-targeting control: 0.267

What did the screen give for OR2A14 [SID329582732]?
z-score vs non-targeting control: -0.513

What is on record for TMEM254 [SID329581168]?
z-score vs non-targeting control: -1.54 (active)

Which result is listed for ZNF267 [SID329577090]?
z-score vs non-targeting control: 0.702

With GNB2 [SID329573797], how do the results read?
z-score vs non-targeting control: 1.48 (active)

With TMPRSS11F [SID329584353], what was measured?
z-score vs non-targeting control: 1.48 (active)

Which result is listed for DISC1 [SID329578527]?
z-score vs non-targeting control: 0.23

Which result is listed for ZC3H4 [SID329577873]?
z-score vs non-targeting control: -0.399

What is on record for LTBP3 [SID329574341]?
z-score vs non-targeting control: 0.0717

With MCUB [SID329579521], what was measured?
z-score vs non-targeting control: -2.88 (active)

What did the screen give for FAM234A [SID329581491]?
z-score vs non-targeting control: -2.58 (active)

How did the screen score TLX1 [SID329574008]?
z-score vs non-targeting control: -0.914

What is on record for COCH [SID329573400]?
z-score vs non-targeting control: -0.784

For SYT13 [SID329580308], how do the results read?
z-score vs non-targeting control: -1.09 (active)

Which result is listed for ZFYVE1 [SID329579220]?
z-score vs non-targeting control: 0.886

For CCNDBP1 [SID329578072], how do the results read?
z-score vs non-targeting control: -1.65 (active)

For CNTFR [SID329573193], how do the results read?
z-score vs non-targeting control: -2.13 (active)

How did the screen score VCX2 [SID329579085]?
z-score vs non-targeting control: -0.455

How did the screen score FIZ1 [SID329581777]?
z-score vs non-targeting control: -0.76

For USP27X [SID329584371], what does the deposit list?
z-score vs non-targeting control: -1.28 (active)

With PLAAT5 [SID329582347], how do the results read?
z-score vs non-targeting control: -0.154

For EN1 [SID329573536], how do the results read?
z-score vs non-targeting control: 1.34 (active)

Which result is listed for P2RY6 [SID329574732]?
z-score vs non-targeting control: 1.41 (active)

How did the screen score RPP25 [SID329579460]?
z-score vs non-targeting control: 0.126

For TMEM40 [SID329579677], what does the deposit list?
z-score vs non-targeting control: 1.56 (active)

For RAI14 [SID329578300], what does the deposit list?
z-score vs non-targeting control: -0.635

What did the screen give for CHAMP1 [SID329583841]?
z-score vs non-targeting control: -2.52 (active)

What is on record for ZNF442 [SID329581102]?
z-score vs non-targeting control: -1.09 (active)

With COX6A1 [SID329573230], what was measured?
z-score vs non-targeting control: 1.31 (active)

What is on record for IFI35 [SID329574091]?
z-score vs non-targeting control: -0.408

For ADPRH [SID329572706], how do the results read?
z-score vs non-targeting control: 0.971

With ZNF226 [SID329575932], how do the results read?
z-score vs non-targeting control: -0.794

With WRNIP1 [SID329580075], how do the results read?
z-score vs non-targeting control: -1.32 (active)

What is on record for OR9I1 [SID329583535]?
z-score vs non-targeting control: -0.282

How did the screen score ABCD2 [SID329572745]?
z-score vs non-targeting control: -0.853

With HERC2P3 [SID329583853], what was measured?
z-score vs non-targeting control: 1.16 (active)

For CCKAR [SID329573033], what was measured?
z-score vs non-targeting control: -1.21 (active)

What is on record for PCDHGC4 [SID329579959]?
z-score vs non-targeting control: -0.375

For HELLS [SID329573950], how do the results read?
z-score vs non-targeting control: -1.51 (active)

With SLC43A3 [SID329578635], what was measured?
z-score vs non-targeting control: -1.06 (active)

What is on record for CRCP [SID329578567]?
z-score vs non-targeting control: -0.884

What is on record for UGDH [SID329575761]?
z-score vs non-targeting control: -0.797

How did the screen score NEUROD2 [SID329574600]?
z-score vs non-targeting control: -1.13 (active)

Which result is listed for DEFB105B [SID329584652]?
z-score vs non-targeting control: 1.12 (active)

With PABPN1 [SID329576008], what does the deposit list?
z-score vs non-targeting control: 0.266

With RPS11 [SID329575193], what does the deposit list?
z-score vs non-targeting control: 1.12 (active)

What is on record for ZNF35 [SID329575869]?
z-score vs non-targeting control: -0.659

A portion of the results above, as a working copy:
CNTFR [SID329573193]: z-score vs non-targeting control = -2.13 (active)
VCX2 [SID329579085]: z-score vs non-targeting control = -0.455
FIZ1 [SID329581777]: z-score vs non-targeting control = -0.76
USP27X [SID329584371]: z-score vs non-targeting control = -1.28 (active)
PLAAT5 [SID329582347]: z-score vs non-targeting control = -0.154
